From patent publication EP2654803B1, “RADIOLABELED HER2-BINDING PEPTIDE CONJUGATES” (General Electric Company, priority 2010, dated 2021)

Key:
[1] = tested on: SKOV3 tumors; parameters: species or system female CD-1 nude mice; settings: mouse, in vivo
Method: Labeling of His6 (SEQ ID NO: 7)-tagged Polypeptides with the fac-[^99mTc(CO)3]^+ core was accomplished using modifications to a previously published procedure (Waibel, R.; et al., A. Nat. Biotechnol. 1999, 17, 897.). Briefly, Na[^99mTcO4] in saline (4 mCi, 2 mL) was added to an Isolink® boranocarbonate kit (Alberto, R. et al, J. Am. Chem. Soc. 2001, 123, 3135.). The resulting solution was heated to 95°C for 15-20 minutes, to give fac-[^99mTc(CO)3(H2O)3]^+. A portion (2 mCi, 1 mL) of the solution was removed and neutralized to pH ∼7 with 1 N HCl. A 325 µL aliquot was removed and added to a solution of the His6-Polypeptide (SEQ ID NO: 7) (40 µg). The resulting solution was heated in a water bath at 35-37°C for 40 minutes. Typical radiochemical yields ranged from 80-95% (determined by ITLC-SG, Biodex, 0.9% NaCl). […]
Mice were given tail-vein injections of ∼1 µg of ^99mTc-labeled polypeptides (∼3 µCi/1 µg). […] Three mice were euthanized at each timepoint and tissues of interest dissected and counted on a Perkin Elmer Wallac Wizard 1480 Gamma Counter. […] Urine from cages was pooled with the bladder and also counted. The remaining tissues were counted and the sum of all tissues plus urine for each animal was summed to provide the total injected dose. The % injected dose for each organ was determined based on this total, and organs were weighed for determination of the % injected dose per gram, (%ID/g). […]

[2] = stability of purified, formulated 67Ga-labeled polypeptide (HPLC); format: physicochemical; settings: formulated in Dulbecco's phosphate buffered saline, pH 6-6.5, RCP = 96% by HPLC
Method: Radiolabeling was subsequently accomplished as follows: 25µl HEPES solution (63mM) was initially added to a screw top vial followed by 10µl ^67GaCl3 (GE Healthcare) in 40.5 MBq of 0.04M HCl. 30 µg (MW = 7506, 4.0×10^-9 mol) of the NOTA Z00477 (SEQ. ID No. 3) in 30 µl H2O was then added to the reaction mixture to give a final NOTA Z00477 (SEQ. ID No. 3) concentration of 61 µM with a pH of 3.5-4.0. The reaction vial was sealed and the reaction maintained at ambient temperature. Reverse phase HPLC analysis of the crude reaction mixture determined the radiochemical purity of the ^67Ga-NOTA Z00477 (SEQ. ID No. 3) was determined to be 95% by HPLC after 2 hours at room temperature. (Fig. 21) The ^67Ga-NOTA Z00477 (SEQ. ID No. 3) was purified by HPLC after a reaction time of 1 day. 22MBq of ^67Ga-NOTA Z00477 (SEQ. ID No. 3) was injected onto the HPLC for the purification. 15MBq of the ^67Ga labeled product was obtained from the purification (radiochemical yield = 68%). HPLC solvents were removed under vacuum to give a solution with an approximate volume of 0.5 mL. Approximately 1.45 mL of Dulbecco's phosphate buffered saline was then added to give a final solution at pH 6-6.5 with a radioactivity concentration of 7.7 MBq/mL. […] (RCP = 96% by HPLC) (Fig. 22). Analytical HPLC conditions used are as follows: A Grace Vydac C4 protein 5 micron, 300Å, 4.6 x 250 mm HPLC column. […]

Z00477 (SEQ. ID No. 3) His6 (SEQ ID NO: 7)tagged: His6-tagged Z00477 polypeptide labeled with the fac-[99mTc(CO)3]+ core
peak tumor: blood ratio [1]: more than 8

^67Ga-NOTA Z00477 (SEQ. ID No. 3): Z00477 polypeptide conjugated with Mal-NOTA and labeled with 67Ga
stable at room temperature [2]: at least 2 hr
